Results reported in patent publication US20210363204A1.

B1: NV1G1707 (peptide)
peptide: GPQCQKWMQTCDRERKCCEGFVCTLWCRKKLWAPAPAPAPAPYGRKKRRQRRR
modifications: not checked
B2: NV1G1973 (peptide)
peptide: GPQRFVTGHFGGLYPANGAPAPAPAPAPQCQKWMQTCDRERKCCEGFVCTLWCRKKLW
modifications: not checked

biological target: human Nav1.7 (sodium channel protein type 9 subunit alpha) (human), Q15858; experiment: cell-based or functional assay

| Binder | hNav1.7 TETRA IC50 [nM] |
| --- | --- |
| GPACQKWFQTCDAERKCCEGMVCRLWCKKKLW (modifications not checked) [Protoxin-II variant NV1D2867] | > 1000 |
| GPACQKWFQTCDSERKCCEGLVCRLWCKKKLW (modifications not checked) [Protoxin-II variant NV1D2882] | 857 |
| GPQCQKWFQTCDSERKCCEGLVCRLWCKKKLW (modifications not checked) [Protoxin-II variant NV1D2870] | 784 |
| GPACQKWFQTCDSERKCCEGFVCRLWCKKKLW (modifications not checked) [Protoxin-II variant NV1D2881] | 488 |
| GPYCQKWFQTCDAERKCCEGFVCRLWCKKKLW (modifications not checked) [Protoxin-II variant NV1D2905] | 713 |
| GPSCQKWFWTCDAERKCCEGFVCRLWCKKKLW (modifications not checked) [Protoxin-II variant NV1D2889] | 12.1 |
| GPSCQKWFQTCDSERKCCEGLVCRLWCKKKLW (modifications not checked) [Protoxin-II variant NV1D2878] | 680 |
| GPYCQKWFQTCDAERKCCEGLVCRLWCKKKLW (modifications not checked) [Protoxin-II variant NV1D2906] | 940 |
| GPSCQKWFQTCDSERKCCEGFVCRLWCKKKLW (modifications not checked) [Protoxin-II variant NV1D2877] | 441 |
| GPQCQKWFQTCDAERKCCEGMVCRLWCKKKLW (modifications not checked) [Protoxin-II variant NV1D2861] | > 1000 |
| GPYCQKWMWTCDSKRKCCEGMVCRLWCKKKLW (modifications not checked) [Protoxin-II variant NV1D791] | 4.8 |
| GPACQKWFQTCDSERKCCEGMVCRLWCKKKLW (modifications not checked) [Protoxin-II variant NV1D2816] | 667 |
| GPACQKWMQTCDSERKCCEGFVCRLWCKKKLW (modifications not checked) [Protoxin-II variant NV1D2735] | 60 |
| GPYCQKWMWTCDSNRKCCEGMVCRLWCKKKLW (modifications not checked) [Protoxin-II variant NV1D1332] | 6.7 |
| GPSCQKWFQTCDSERKCCEGMVCRLWCKKKLW (modifications not checked) [Protoxin-II variant NV1D2814] | 754 |
| GPYCQKWMWTCDSERKCCEGLVCRLWCKKKLW (modifications not checked) [Protoxin-II variant NV1D1336] | 10.5 |

biological target: human Nav1.7 (human), Q15858; experiment: cell-based or functional assay

| Binder | Nav1.7 IC50, FLIPR Tetra membrane depolarization [nM] |
| --- | --- |
| B1 | 84.9 |
| GPQCQEWMQTCDRERKCCKGFVCTLWCRKKLW (modifications not checked) [NV1G1846] | 68.6 |
| GPQCQKWMQTCDRERKCCEGFVCTLWCRKKLD (modifications not checked) [NV1G1793] | 80.9 |
| GPQCQAWMQTCDRERKCCEGFVCTLWCRKKLW (modifications not checked) [NV1G1771] | 70.6 |
| GPSPGARAFAPAPAQCQKWMQTCDRERKCCEGFVCTLWCRKKLW (modifications not checked) [NV1G1961] | 68 |
| GPACQKWMQTCDRNRKCCEGFSCTLWCRKKLW (modifications not checked) [NV1G1867] | 76 |
| B2 | 66.9 |
